Compound potency records, mixed from different reports. Data source: NIAID ChemDB in PubChem.

Shared fields: host cell toxicity; cells: MCF-7; measure: CC50

Rows are shuffled and stem from different studies. CCn is the concentration with n% toxicity to the cells. An empty or dashed field is not shown.

SMILES	read by	value
C/C=C/c1ccc2c(c1)[C@H](C)[C@@H](c1ccc(O)cc1)O2	sulforhodamine / absorbance	37 µM
O=C1c2c(O)cc(O)cc2O[C@@H](c2ccc(O)cc2)[C@@H]1c1c(O)cc(O)c2c(=O)cc(-c3ccc(O)c(O)c3)oc12	sulforhodamine / absorbance	>50 µM
Cc1cc(NS(=O)(=O)c2ccc(N3C(=O)CSC3c3ccc(F)cc3)cc2)no1	MTT	>100 µg/mL
CC(=O)O[C@@H](/C=C(\C)C(=O)O)C[C@@H](C)[C@H]1CC[C@@]2(C)C3CC[C@H]4C(C)(C)C(=O)CC[C@]4(C)C3=CC[C@]12C		>40 µM
Cc1cc(NS(=O)(=O)c2ccc(N3C(=O)CSC3c3ccc(Cl)cc3)cc2)no1	MTT	>100 µg/mL
C#CCCC[C@@H]1OC(=O)CNC(=O)[C@H]([C@@H](C)CC)NC(=O)[C@@H]2CCCN2C(=O)[C@H](C(C)C)OC(=O)[C@H](Cc2ccccc2)N(C)C(=O)[C@H](C(C)C)NC(=O)C1(C)C	MTT	>100 µM
CCCCCC1CC(O)CC(=O)O1	MTT	1600 µg/mL
C/C(=C\CC[C@@H](C)C1CC[C@@]2(C)[C@@H]3CC[C@H]4C(C)(C)C(=O)CC[C@]4(C)[C@@]3(O)CC[C@]12C)C(=O)O		>40 µM
O=C1c2c(O)cc(O)cc2O[C@H](c2ccc(O)cc2)[C@H]1c1c(O)cc(O)c2c(=O)cc(-c3ccc(O)c(O)c3)oc12	sulforhodamine / absorbance	>50 µM
CC[C@@]1(O)C(=O)OCc2c1cc1n(c2=O)Cc2cc3ccccc3nc2-1		0.08 µM
COc1cc(-c2ccccc2)c(O)c(OC)c1O	sulforhodamine / absorbance	>50 µM
C#CCCC[C@@H]1OC(=O)CNC(=O)[C@H](C(C)C)NC(=O)[C@@H]2CCCN2C(=O)[C@H]([C@@H](C)CC)OC(=O)[C@H](Cc2ccccc2)N(C)C(=O)[C@H](C(C)C)NC(=O)C1(C)C	MTT	83 µM
C/C(=C\C=C\C(C)[C@H]1CC[C@@]2(C)[C@@H]3CC[C@H]4C(C)(C)C(=O)CC[C@]4(C)C3=CC[C@]12C)C(=O)O	sulforhodamine / absorbance	>50 µM
C/C(=C\C=C\[C@@H](C)[C@H]1CC[C@@]2(C)C3CC[C@H]4C(C)(C)C(=O)CC[C@]4(C)[C@@]3(O)[C@@H](O)C[C@]12C)C(=O)O		>40 µM
C[C@H]1[C@H](O)C(=O)CC2[C@]3(C)CC[C@@]4(C)C5CC(C)(C)CC[C@]5(C)CC[C@]4(C)C3CC[C@@]21C	sulforhodamine / absorbance	>50 µM
CC(C)C12C=C3CC[C@H]4[C@](C)(C(=O)O)CCC[C@]4(C)[C@]3(CC1)OO2	absorbance	28.4 µg/mL

A second listing of 2 rows from above:

SMILES,read by,value
CC(C)C12C=C3CC[C@H]4[C@](C)(C(=O)O)CCC[C@]4(C)[C@]3(CC1)OO2,absorbance,28.4 µg/mL
CC[C@@]1(O)C(=O)OCc2c1cc1n(c2=O)Cc2cc3ccccc3nc2-1,,0.08 µM